Measured values published in patent US9447116B2, “Inhibitors of HIV replication” (priority 2010, dated 2016).

Legend:
[1] = system: HIV-1 virus (NL4.3 strain); assay: MT-2 based antiviral assay (S8737E); assay type: cell-based; conditions: read-out: Antiviral Activity (S8737E); HIV-1 NL4.3 replication in MT2 cells, 3 days, β-Gal readout in JC53BL cells
Source text: MT-2 Based Antiviral Assay (S8737E)
This assay is designed to determine the effects of small molecules on the replication of HIV-1 in the lymphobastoid cell line, MT2, and is able to detect the antiviral effect of compounds acting at any stage of the HIV-1 replication cycle. The assay, along with its associated cytotoxicity assay, was described in detail in 2005 in a paper by Cao et al (Antimicrobial Agents and Chemotherapy 2005; 49(9), p 3833-3841).
MT2 cells are infected with the HIV-1 virus (NL4.3 strain; Adachi et al., Journal of Virology 1986) and transferred to assay plates containing serial dilutions of compounds to be tested. The assay plates are incubated for 3 days (MT2) to allow for several rounds of viral replication/infection to take place. At the end of this time, supernatant is transferred into new plates containing JC53BL cells.
JC53BL cells express CXCR4, CCR5 and CD4 receptors, and HIV-1-LTR-β-Gal. Under normal culture conditions undetectable levels of β-Galactosidase are expressed, but in the presence of HIV-1, the viral Tat protein is able to activate the HIV-1-LTR in the JC53BL cells resulting in the increased expression of the β-Gal enzyme. The expression can be measured using the ‘FluorAce β-Galactosidase reporter’ assay. The levels of β-Gal are directly proportional to the levels of Tat (up to a threshold) allowing virus quantification. […]

[2] = target: LEDGF-Integrase interaction (Human immunodeficiency virus type 1 group M subtype B, UniProt P12497); assay: HTRF Interaction assay (S9118); set-up: species or system HIV; conditions: read-out: HTRF Interaction assay (S9118); His6-tagged integrase and MBP-LEDGF integrase binding domain; table values

Structure (SMILES): CCOC(C(=O)O)c1c(C)nc2sc3c(c2c1-c1ccc2ncn(C)c2c1)CCCC3 (centres unmarked)
- IC50 [1]: 15.7 µM
- IC50 [2]: > 100 µM
